# Experimental data published in patent publication US8455223B2, “Dehydrogenases, the derivatives thereof, and method for the production of optically active alkanols” (BASF SE, priority 2005, dated 2013).
# What was measured:
# Assay type in all cases: biochemical, Candida
# [1] = tested on: ADH-3 enzyme SEQ ID NO: 2; assay: Relative activity of dehydrogenase for various substrates, without cofactor regeneration (Example 1); conditions: value in brackets
# Method: (§1) Relative activity of the dehydrogenases of the invention for various substrates (optical purity in % ee is indicated in brackets)
# (§2) The reaction was carried out without cofactor regeneration.
# (§3) 180 μl of 50 mM Kpi buffer, including 1 mM MgCl2
# (§4) 200 μl of NADPH, 10 mM stock solution
# (§5) 100 μl of substrate, 1 M stock solution 500 μl of hexane
# (§6) The reaction mixture was incubated at 37° C. and 1000 rpm for approx. 20 hours. It was then centrifuged at 20° C., the clear supernatant was removed and analyzed by chiral gas chromatography.
# [2] = tested on: ADH-4 enzyme SEQ ID NO: 4; assay: as above; conditions: value in brackets
# Method: as §1, §2, §3, §4, §5, §6
# [3] = tested on: ADH-3 enzyme SEQ ID NO: 2; assay: Relative activity of dehydrogenase for various substrates, with cofactor regeneration, monophasic liquid system (Example 2); conditions: value in brackets, configuration R/S printed in cell
# Method: Relative activity of the dehydrogenases of the invention for various substrates (optical purity in % ee is indicated in brackets) with cofactor regeneration.
# The reaction was carried out in a manner similar to example 1. Cofactor regeneration was carried out by way of addition of glucose and glucose dehydrogenase in a monophasic liquid system.
# [4] = tested on: ADH-3 enzyme SEQ ID NO: 2; assay: Relative activity of dehydrogenase for various substrates, with cofactor regeneration in the 2-phase system (Example 3); conditions: two-phase (MTBE: aqueous), value in brackets, configuration R/S printed in cell
# [5] = tested on: ADH-4 enzyme SEQ ID NO: 4; assay: as above; conditions: two-phase (MTBE: aqueous), value in brackets, configuration R/S printed in cell
molecule,measurement,setting,value
CC(=O)c1ccccc1 [Acetophenone],optical purity,[1],> 99 % ee
same,optical purity,[2],70 % ee
same,optical purity,[3],> 99 % ee
same,optical purity,[4],> 99 % ee
same,optical purity,[5],70 % ee
4-chloro-methoxyacetophenone [CMAP],optical purity,[1],90 % ee
same,optical purity,[2],88 % ee
same,optical purity,[4],> 99 % ee
same,optical purity,[5],97 % ee
